Results of unrelated studies side by side (data: NIAID ChemDB).

Common to all: tests in culture; species: Mycobacterium avium; measure: MIC

a–b is a range or a potency band.

{"smiles": "Cc1ccc(/C=N/N=C(\\N)c2ccncc2)cc1", "strain": "Isoniazid/rifampicin/ofloxacin-resistant", "value": "32 µg/mL"}
{"smiles": "CCc1ccc(NC(=S)c2cc(Cl)ccc2O)cc1", "strain": "MY330/88", "value": "31 µM"}
{"smiles": "O=C(NNC1=NS(=O)(=O)c2ccccc2N1c1ccccc1)c1ccncc1", "strain": "ATCC49601", "value": ">16 µg/mL"}
{"smiles": "CCC(C)Sc1ccnc(C(N)=S)c1", "strain": "80/72", "value": "125 µM"}
{"smiles": "O=C(Nc1ccc(C(F)(F)F)cc1)c1cc(Cl)ccc1OS(=O)(=O)c1ccccc1", "conditions": "14 d", "strain": "330/88", "value": "125 µM"}
{"smiles": "CCCCc1ccc(NC(=O)CCC(=O)Nc2ccc(CCCC)cc2)cc1", "strain": "NO 80/72", "value": "63 µM"}
{"smiles": "Cc1c(CN2CCN(C)CC2)cc(-c2ccccc2)n1-c1ccccc1F", "strain": "103317", "value": ">16 µg/mL"}
{"smiles": "FC(F)(F)c1nc2c(Br)c(Br)c(Br)c(Br)c2[nH]1", "strain": "MY330/88", "value": "125 µM"}
{"smiles": "Cc1c(CN2CCN(C)CC2)cc(-c2ccccc2Cl)n1-c1cccc2ccccc12", "value": "4 µg/mL"}
{"smiles": "CCCSc1ccnc(C(N)=S)c1", "strain": "80/72", "value": "250 µM"}
{"smiles": "Cc1c(CN2CCN(C)CC2)cc(-c2ccccc2)n1-c1ccc(F)cc1", "strain": "103317", "value": "0.4 µg/mL"}
{"smiles": "CCOc1cccc(NC(=O)OCCN2CCOCC2)c1", "strain": "MY330/88", "value": ">1000 µM"}
{"smiles": "CCCCc1ccc2nc(C)cc(NN)c2c1", "strain": "ATCC 25291", "value": "3.13 µg/mL"}
{"smiles": "OCCN1CCN(CC/C=C2/c3ccccc3Sc3ccc(C(F)(F)F)cc32)CC1", "strain": "T 10350", "value": "25 µg/mL"}
{"smiles": "Cc1c(CN2CCSCC2)cc(-c2ccccc2F)n1-c1ccccc1", "strain": "103317", "value": ">16 µg/mL"}
{"smiles": "O=C(Nc1ccc(C(F)(F)F)cc1)c1ccc(Cl)cc1OS(=O)(=O)c1ccccc1", "conditions": "14 d", "strain": "330/88", "value": "250 µM"}
{"smiles": "CCCCCOc1ccc(NC(=O)OCCN2CCCCC2)cc1", "strain": "MY330/88", "value": "62.5 µM"}
{"smiles": "O=C(Oc1cc(Cl)ccc1C(=O)Nc1ccc(Cl)c(Cl)c1)c1cnccn1", "conditions": "21 d", "strain": "330/88", "value": "16 µM"}
{"smiles": "O=C(Nc1ccc(Br)cc1)c1cc(Cl)ccc1OS(=O)(=O)c1ccccc1", "conditions": "21 d", "strain": "330/88", "value": "32 µM"}
{"smiles": "O=C(c1ccc(I)cc1)c1ccc(-c2ccc(Br)cc2)cc1", "value": "539 µM"}
{"smiles": "FC(F)(F)c1nc2c(Br)cc(Br)cc2[nH]1", "strain": "MY330/88", "value": "62.5 µM"}
{"smiles": "CCCCCCCCCCCCNC[C@H]1O[C@H](O[C@H]2O[C@H](CNCCCCCCCCCCCC)[C@@H](O)[C@H](O)[C@H]2O)[C@H](O)[C@@H](O)[C@@H]1O", "strain": "NJ3404", "value": "8 µg/mL"}
{"smiles": "Cc1c(CN2CCSCC2)cc(-c2ccccc2)n1-c1ccccc1", "strain": "103317", "value": ">16 µg/mL"}
{"smiles": "O=C(Nc1cccc(F)c1)c1ccc(Cl)cc1OS(=O)(=O)c1ccccc1", "conditions": "21 d", "strain": "330/88", "value": "500 µM"}
{"smiles": "Oc1ccc(Cl)cc1C(=S)Nc1ccc(Cl)cc1", "strain": "MY330/88", "value": "31 µM"}
{"smiles": "C=C1C(=O)O[C@@H]2/C=C(\\C)CC[C@H]3OC3(C)CC[C@@H]12", "value": "128 µg/mL"}
{"smiles": "CC(C)c1ccc(NC(=O)CCC(=O)Nc2ccc(C(C)C)cc2)cc1", "strain": "NO 80/72", "value": "63 µM"}
{"smiles": "CCCCCCCSc1ccnc(C(N)=S)c1", "strain": "80/72", "value": "60 µM"}
{"smiles": "Cc1ccc(-n2nnnc2SSc2nnnn2-c2ccc(C)c(C)c2)cc1C", "strain": "80/72", "value": "1000 µM"}
{"smiles": "CCCOc1ccc(NC(=S)Nc2ccc(OCCC)cc2)cc1", "strain": "724", "value": ">20 µg/mL"}
{"smiles": "CCCCCC(N)=NC[C@H]1O[C@H](O[C@H]2O[C@H](CN=C(N)CCCCC)[C@@H](O)[C@H](O)[C@H]2O)[C@H](O)[C@@H](O)[C@@H]1O", "strain": "NJ211", "value": ">128 µg/mL"}
{"smiles": "CCCCCCCCCOc1cccc(NC(=O)OCCN(C)C)c1", "strain": "MY330/88", "value": "16 µM"}
{"smiles": "CCn1cc(C(=O)OCC(=O)O[C@H]2[C@H](C)[C@H](O)[C@H](C)[C@@H](O)[C@@H](C)/C=C/C=C(/C)C(=O)Nc3c(/C=N/N4CCN(C)CC4)c(O)c4c5c(c(C)c(O)c4c3O)O[C@](C)(O/C=C/[C@H](OC)[C@H]2C)C5=O)c(=O)cc1N1CCN(C)CC1", "value": "<0.2 µg/mL"}
{"smiles": "Cc1c(CN2CCSCC2)cc(-c2ccccc2Cl)n1-c1ccccc1Cl", "value": "8 µg/mL"}
{"smiles": "CN1C(NNC(=O)c2ccc(Cl)nc2)=NS(=O)(=O)c2ccccc21", "strain": "ATCC49601", "value": ">16 µg/mL"}
{"smiles": "CCCCCCCOc1cccc(NC(=O)OCCN2CCOCC2)c1", "strain": "MY330/88", "value": "32 µM"}
{"smiles": "OCCN1CCN(CC/C=C2\\c3ccccc3Sc3ccc(C(F)(F)F)cc32)CC1", "strain": "T 10350", "value": "25 µg/mL"}
{"smiles": "COc1ccc(-n2nnnc2SSc2nnnn2-c2ccc(OC)cc2)cc1", "strain": "80/72", "value": ">1000 µM"}
{"smiles": "O=[N+]([O-])c1ccc(Sc2nc3c(Br)cc(Br)cc3[nH]2)cc1", "strain": "MY330/88", "value": "16 µM"}
{"smiles": "CCCCCCCOc1ccc(NC(=O)OCCN2CCCCC2)cc1", "strain": "MY330/88", "value": "16 µM"}
{"smiles": "O=C(Oc1ccc(Cl)cc1C(=O)Nc1ccc(Cl)c(Cl)c1)c1cnccn1", "conditions": "14 d", "strain": "330/88", "value": "4 µM"}
{"smiles": "Clc1ccc(-n2nnnc2SSc2nnnn2-c2ccc(Cl)cc2)cc1", "strain": "80/72", "value": "500 µM"}
{"smiles": "O=C(CCC(=O)Nc1ccc(Cl)c(Cl)c1)Nc1ccc(Cl)c(Cl)c1", "strain": "NO 80/72", "value": "250 µM"}
{"smiles": "CCN1C(NNC(=O)c2cnccn2)=NS(=O)(=O)c2ccccc21", "strain": "ATCC49601", "value": ">16 µg/mL"}
{"smiles": "CCCCNc1nc(C(N)=S)cnc1C(N)=O", "strain": "80/72", "value": "100 µg/mL"}
{"smiles": "CC(C)CSc1ccnc(C(N)=S)c1", "strain": "80/72", "value": "1000 µM"}
{"smiles": "CCCOc1ccccc1NC(=O)OCC[NH+]1CCCC1", "strain": "MY330/88", "value": "1000 µM"}
{"smiles": "CCCCCCCCSc1ccnc(C(N)=S)c1", "strain": "80/72", "value": "30 µM"}
{"smiles": "O=C(NC1=NS(=O)(=O)c2ccccc2N1c1ccccc1)c1ccc(Cl)nc1", "strain": "ATCC49601", "value": ">16 µg/mL"}
{"smiles": "NC(=O)c1ncc(C(N)=S)nc1Nc1cccc(O)c1", "strain": "80/72", "value": "50 µg/mL"}
{"smiles": "COc1ccc(NC(=S)c2cc(Cl)ccc2O)cc1", "strain": "MY330/88", "value": "16 µM"}
{"smiles": "Cc1c(CN2CCSCC2)cc(-c2ccccc2F)n1-c1cccc2ccccc12", "value": "2 µg/mL"}
{"smiles": "O=C(c1ccc(Br)cc1)c1ccc(-c2ccc(Br)cc2)cc1", "value": "307 µM"}
{"smiles": "FC(F)(F)c1nc2cc(Cl)c(Cl)cc2[nH]1", "strain": "MY330/88", "value": "32 µM"}
{"smiles": "O=C(Oc1ccc(Cl)cc1C(=O)Nc1ccc(Br)cc1)c1cnccn1", "conditions": "14 d", "strain": "330/88", "value": "8 µM"}
{"smiles": "N/C(=N\\N=C\\c1ccccc1Br)c1ccncc1", "strain": "Isoniazid/rifampicin/ofloxacin-resistant", "value": "64 µg/mL"}
{"smiles": "O=C(CCC(=O)Nc1ccccc1)Nc1ccccc1", "strain": "NO 80/72", "value": "500 µM"}
{"smiles": "O=[N+]([O-])c1ccc(Sc2nc3c(Br)cc(Br)cc3[nH]2)c([N+](=O)[O-])c1", "strain": "MY330/88", "value": "500 µM"}
{"smiles": "CN(C)CC/C=C1/c2ccccc2Sc2ccc(Cl)cc21", "strain": "T 10350", "value": "25 µg/mL"}
{"smiles": "CS(=O)(=O)c1ccc(C(=O)c2ccc(-c3ccc(Br)cc3)cc2)cc1", "value": "78 µM"}
{"smiles": "CCCCCCCOc1ccc(NC(=O)OCC[NH+]2CCCC2)cc1", "strain": "MY330/88", "value": "16 µM"}
{"smiles": "FC(F)(F)C(F)(F)C(F)(F)c1nc2cc(Cl)c(Cl)cc2[nH]1", "strain": "MY330/88", "value": "32 µM"}
{"smiles": "O=C(NC1CCCCC1)N(C(=O)c1cnccn1)C1CCCCC1", "conditions": "14 d", "strain": "330/88", "value": "500 µM"}
{"smiles": "CCCCSc1ccnc(C(N)=S)c1", "strain": "80/72", "value": "250 µM"}
{"smiles": "CC(C)N1C(NNC(=O)c2cnccn2)=NS(=O)(=O)c2ccccc21", "strain": "ATCC49601", "value": ">16 µg/mL"}
{"smiles": "O=C(Nc1cccc(Cl)c1)c1ccc(Cl)cc1OS(=O)(=O)c1ccccc1", "conditions": "21 d", "strain": "330/88", "value": "500 µM"}
{"smiles": "CCCSc1ccc(NC(=S)Nc2ccc(OCCC(C)C)cc2)cc1", "strain": "724", "value": "20 µg/mL"}
{"smiles": "NC(=O)c1ncc(C(N)=S)nc1NC1CCCCCC1", "strain": "80/72", "value": ">100 µg/mL"}
{"smiles": "CCCCC(CC)CNC[C@H]1O[C@H](O[C@H]2O[C@H](CNCC(CC)CCCC)[C@@H](O)[C@H](O)[C@H]2O)[C@H](O)[C@@H](O)[C@@H]1O", "strain": "NJ168", "value": "64 µg/mL"}
{"smiles": "CCCCCCCCCCCCCCCCCCNC(=S)NCCCC(=O)OC", "strain": "724", "value": ">20 µg/mL"}
{"smiles": "O=C1NC(=NCc2ccccc2)N/C1=C\\c1ccc(Cl)cc1", "value": ">12.5 µg/mL"}
{"smiles": "COc1cccc(NC(=O)OCC[NH+]2CCCC2)c1", "strain": "MY330/88", "value": ">1000 µM"}
{"smiles": "CCN1C(NNC(=O)c2ccncc2)=NS(=O)(=O)c2ccccc21", "strain": "ATCC49601", "value": "16 µg/mL"}
{"smiles": "N/C(=N\\N=C\\c1ccccc1)c1ccncc1", "strain": "Isoniazid/rifampicin/ofloxacin-resistant", "value": "128 µg/mL"}
{"smiles": "CCCCCCCCCCSc1ccnc(C(N)=S)c1", "strain": "80/72", "value": "60 µM"}
{"smiles": "Cc1c(CN2CCN(C)CC2)cc(-c2ccccc2Cl)n1-c1ccccc1", "strain": "103317", "value": ">16 µg/mL"}
{"smiles": "O=C1NC(Nc2cccc(Cl)c2)=N/C1=C\\c1ccccc1Cl", "value": ">12.5 µg/mL"}
{"smiles": "CC(=O)N1N=C(c2ccncc2)OC1c1ccc(F)c(F)c1", "value": "<12.5 µg/mL"}
{"smiles": "O=C(Nc1cccc(Cl)c1)c1cc(Cl)ccc1OS(=O)(=O)c1ccccc1", "conditions": "14 d", "strain": "330/88", "value": "32 µM"}
{"smiles": "O=C(NNC1=NS(=O)(=O)c2ccccc2N1c1ccccc1)c1cccnc1", "strain": "ATCC49601", "value": ">16 µg/mL"}
{"smiles": "CCCCOc1ccc(NC(=O)OCC[NH+]2CCCC2)cc1", "strain": "MY330/88", "value": "125 µM"}
{"smiles": "CN1C(NNC(=O)c2ccncc2)=NS(=O)(=O)c2ccccc21", "strain": "ATCC49601", "value": ">16 µg/mL"}
{"smiles": "CCCCCCOc1cccc(NC(=O)OCC[NH+]2CCCC2)c1", "strain": "MY330/88", "value": "32 µM"}
{"smiles": "NC[C@H]1O[C@H](O[C@H]2O[C@H](CN)[C@@H](O)[C@H](O)[C@H]2O)[C@H](O)[C@@H](O)[C@@H]1O", "strain": "NJ3404", "value": ">128 µg/mL"}
{"smiles": "CCCCCOc1ccccc1NC(=O)OCC[NH+]1CCCC1", "strain": "MY330/88", "value": "62.5 µM"}
{"smiles": "CC(C)c1ccc(NC(=S)c2cc(Cl)ccc2O)cc1", "strain": "MY330/88", "value": "31 µM"}
{"smiles": "CCCCCOc1ccc(NC(=O)OCC[NH+]2CCCC2)cc1", "strain": "MY330/88", "value": "62.5 µM"}
{"smiles": "NC(=O)c1ncc(C(N)=S)nc1Nc1ccccc1", "strain": "80/72", "value": "100 µg/mL"}
{"smiles": "CC(C)COc1ccc(NC(=S)Nc2ccc(OCC(C)C)cc2)cc1", "strain": "724", "value": "5 µg/mL"}
{"smiles": "C/C=C/Nc1nc(C(N)=S)cnc1C(N)=O", "strain": "80/72", "value": "50 µg/mL"}
{"smiles": "CCCCCCCCS(=O)(=O)NC[C@H]1O[C@H](O[C@H]2O[C@H](CNS(=O)(=O)CCCCCCCC)[C@@H](O)[C@H](O)[C@H]2O)[C@H](O)[C@@H](O)[C@@H]1O", "strain": "NJ1854", "value": "32–64 µg/mL"}

Rows are shuffled and stem from different studies.